Measured values from several laboratories, pooled; numbers as filed in NIAID ChemDB.

Common to all: tests on isolated targets; agent: Hepatitis C virus

Two numbers with a dash give a range or band.

SMILES,protein,read-out,dose,value
O=C(O)c1cc2nc(-c3ccc(F)cc3)cc(-c3ccccc3)n2n1,RNA-dependent RNA polymerase,IC50,-,>10 µM
Cc1ccc(C(=O)Nc2cccc(-c3nc(C(=O)O)c(O)c(=O)[nH]3)c2)s1,HCV polymerase,IC50,-,<100 µM
CCOC(=O)c1cc2nc(-c3ccccc3)cc(-c3ccc(Cl)cc3)n2n1,RNA-dependent RNA polymerase,IC50,-,>10 µM
CC1(C)C(CC(=O)O)CC1c1ccc2cc(-c3nc4cc(C(=O)O)ccc4n3C3CCCCC3)ccc2n1,NS5B polymerase,inhibition,100 µM,100%
CNC(=O)c1c(-c2ccccc2)oc2ccc(C(C)(C)C)cc12,Nonstructural protein 5B,IC50,-,≤0.5 µM
COc1ccc(-c2ccc(Cl)cc2)c(-c2ccc3cc(-c4nc5cc(C(=O)O)ccc5n4CCC(C)C)ccc3n2)c1,NS5B polymerase,inhibition,33 µM,99.64%
O=C(NS(=O)(=O)C(F)(F)F)c1cnn2c(C3CCCCC3)c(-c3ccc(F)cc3)cnc12,RNA-dependent RNA polymerase,IC50,-,1–10 µM
O=C(O)c1ccc2c(c1)nc(-c1ccc3nc(-c4cc(Br)ccc4O)ccc3c1)n2C1CCCCC1,NS5B polymerase,inhibition,100 µM,101%
CNC(=O)c1c(-c2ccc(F)cc2)oc2cc(-c3nnc(C)o3)c(OC)cc12,Nonstructural protein 5B,IC50,-,≤0.5 µM
COc1ccc(-c2ccc(C)cc2)c(-c2ccc3cc(-c4nc5cc(C(=O)O)ccc5n4C4CCCCC4)ccc3n2)c1,NS5B polymerase,inhibition,33 µM,98.71%
O=C(NCc1c(Cl)cccc1Oc1ccccc1)Nc1cscc1-c1nc(C(=O)O)c(O)c(=O)[nH]1,HCV polymerase,IC50,-,<25 µM
O=C(O)c1cnc2c(c1)nc(-c1ccc3nc(-c4ccccc4Br)ccc3c1)n2C1CCCCC1,NS5B polymerase,inhibition,100 µM,95.91%
O=C(CCc1ccccc1)Nc1ccccc1-c1nc(C(=O)O)c(O)c(=O)[nH]1,HCV polymerase,IC50,-,<100 µM
CNC(=O)c1c(-c2ccc(F)cc2)oc2cc(OCc3nnnn3C)c(OC)cc12,Nonstructural protein 5B,IC50,-,≤0.5 µM
O=C(O)c1cc2nc(-c3ccccc3Cl)cc(-c3ccccc3Cl)n2n1,RNA-dependent RNA polymerase,IC50,-,>10 µM
O=C(Nc1cccc(-c2nc(C(=O)O)c(O)c(=O)[nH]2)c1)c1ccc(Cl)c(Cl)c1,HCV polymerase,IC50,-,<100 µM
NC(N)=NCCCC(NC(=O)c1ccc2c(c1)nc(-c1cc3ncc(-c4ccccc4)nc3cc1F)n2C1CCCCC1)C(=O)O,NS5B polymerase,inhibition,33 µM,87.14%
c1ccc(COc2ccc(-c3cnc4c(-c5nn[nH]n5)cnn4c3C3CCSCC3)cc2)cc1,RNA-dependent RNA polymerase,IC50,-,1–10 µM
CC(=O)OCOC(=O)c1nc(-c2ccc(-c3sccc3NC(=O)c3ccccc3)cc2)[nH]c(=O)c1O,HCV polymerase,IC50,-,<50 µM
CCOc1cc(-c2ccccc2)nc2ccc(-c3nc4cc(C(=O)O)ccc4n3C3CCCCC3)cc12,NS5B polymerase,inhibition,33 µM,94.82%
CC(=O)c1cccc(NC(=O)Nc2cccc(-c3nc(C(=O)O)c(O)c(=O)[nH]3)c2)c1,HCV polymerase,IC50,-,<100 µM
O=C(O)c1cnn2c(-c3cccc(-c4cccc(Cl)c4)c3)ccnc12,RNA-dependent RNA polymerase,IC50,-,1–10 µM
O=C(O)c1nc(-c2ccccc2Nc2ccccc2)[nH]c(=O)c1O,HCV polymerase,IC50,-,<100 µM
COC(=O)c1ccc(COc2ccc(-c3cnc4c(-c5nn[nH]n5)cnn4c3C3CCCCC3)cc2)cc1,RNA-dependent RNA polymerase,IC50,-,<1 µM
CNC(=O)c1c(-c2ccc(F)cc2)oc2cc(NS(C)(=O)=O)c(OC)cc12,Nonstructural protein 5B,IC50,-,≤0.5 µM
O=C(O)c1cnn2c(-c3ccccc3-c3ccccc3F)ccnc12,RNA-dependent RNA polymerase,IC50,-,>10 µM
NNc1cc(-c2ccccc2)nc2ccc(-c3nc4cc(C(=O)O)ccc4n3C3CCCCC3)cc12,NS5B polymerase,inhibition,100 µM,100%

Repeating the final 2 entries:

SMILES | protein | read-out | dose | value
O=C(O)c1cnn2c(-c3ccccc3-c3ccccc3F)ccnc12 | RNA-dependent RNA polymerase | IC50 | - | >10 µM
NNc1cc(-c2ccccc2)nc2ccc(-c3nc4cc(C(=O)O)ccc4n3C3CCCCC3)cc12 | NS5B polymerase | inhibition | 100 µM | 100%

Conditions beyond the fields shown may differ between rows. Blank or dashed fields: not listed here. ICn: concentration for n% inhibition. Inhibition is in % at the dose shown (toxicity tests: loss of growth or viability).